Results of unrelated studies side by side (data: NIAID ChemDB).

Shared fields: whole-cell or culture tests; organism: HIV-1; endpoint: fold resistance

An empty or dashed field is not shown. Neighbouring rows are from separate reports. Fold resistance has wild type as its base.

smiles | cells | mutations | method | strain | conditions | result
Nc1ccn([C@H]2CC[C@@H](CO)O2)c(=O)n1 | MT-4 | RT-L74V | cytopathic effect | AJ-05.93 (HXB2(RT-L74V)) | - | 4.56
CCc1c(Sc2ccccn2)n(COCc2ccccc2)c(=O)[nH]c1=O | - | RT-Y181C | - | UC781-RS(RT-Y181C | - | 155
O=c1[nH]cnc2c1ncn2[C@H]1CC[C@@H](CO)O1 | MT-4 | RT-T69N L74I Q151M M184V | cytopathic effect | LZ-07.96 (HXB2 RT T69N L74I Q151M M184V) | - | 5.05
CC(=O)c1ccc(C)cc1NC(C(N)=O)c1c(Cl)cccc1Cl | MT-4 | RT-A98S | cytopathic effect / MTT | Recombinant mutant | - | 0.6
CC(C)=CCOc1cc(NC(=S)c2ccoc2C)ccc1Cl | - | RT-Y181C | - | UC781-RS(RT-Y181C | - | 111
CC(C)=CCN1Cc2cc(Cl)cc3[nH]c(=S)n(c23)C[C@@H]1C | MT-4 | RT-A98S | cytopathic effect / MTT | Recombinant mutant | - | 0.5
Cc1csc(NC(=S)N[C@H](C)c2cccc3ccccc23)n1 | PBMC | RT-L74V V106A T215Y | p24 | RT multidrug-resistant (L74V V106A T215Y) | - | 1.9
Nc1ccn([C@H]2CC[C@@H](CO)O2)c(=O)n1 | HT4 + HT4 LacZ-1 | RT-D67N K70R M184V T215F K219Q | plaque count | RTMC(184) (RT D67N K70R M184V T215F K219Q) | - | 3.83
CCCc1cc(=O)oc2c3c(c4c(c12)OC(C)(C)C=C4)O[C@H](C)[C@@H](C)[C@@H]3O | CEM + CEM-SS | RT-P236L | cytopathic effect / XTT | IIIB HEPT-resistant (RT P236L) | - | 2.4
Nc1cccc(CN2C(=O)N(Cc3cccc(N)c3)[C@H](Cc3ccccc3)[C@H](O)[C@@H](O)[C@H]2Cc2ccccc2)c1 | MT-2 | PR-M46L V82V+I I84V+I | virus yield | E (PR M46L V82V/I I84V/I) | - | 10
Cc1ccccc1CNC(=O)[C@H]1N(C[C@@H](O)C[C@@H](Cc2ccccc2)C(=O)N[C@H]2c3ccccc3OC[C@H]2O)CSC1(C)C | MT-4 | PR-V18C | p24 | - | - | 4
CC(C)[C@H](NC(=O)N(C)Cc1ccccn1)C(=O)N[C@@H](Cc1ccccc1)[C@H](O)[C@H](O)[C@H](Cc1ccccc1)NC(=O)[C@@H](NC(=O)N(C)Cc1ccccn1)C(C)C | MT-4 | PR-R8K | p24 | NL4-3 | - | 20
Cn1c2ccccc2c2c1cc(C#N)c(=O)n2-c1ccc([N+](=O)[O-])cc1 | HeLa | RT-V106I Y188L | luciferase | NNRTI-resistant | - | 0.3
CCc1c(Sc2ccccn2)n(COCc2ccccc2)c(=O)[nH]c1=O | CEM + CEM-SS | RT-D67N K70R L100I T215Y K219Q | cytopathic effect / XTT | 4XAZT+L100I (RT D67N K70R L100I T215Y K219Q) | - | 1
Nc1nc(=O)n([C@@H]2CS[C@H](CO)O2)cc1F | HT4 + HT4 LacZ-1 | RT-D67N K70R M184V T215F K219Q | plaque count | RTMC(184) (RT D67N K70R M184V T215F K219Q) | - | >5560
CCCc1cc(=O)oc2c3c(c4c(c12)OC(C)(C)C=C4)O[C@@H](C)[C@H](C)[C@@H]3O | - | RT-Y181C | - | UC781-RS(RT-Y181C | - | <0.3
Cc1cn([C@H]2C=C[C@@H](CO)O2)c(=O)[nH]c1=O | MT-2 | RT-D67N K70R T215Y | - | HXB2D (RT D67N K70R T215Y) | - | 1.475
CC=CCOc1cc(NC(=S)c2ccoc2C)ccc1OC | - | RT-Y181C | - | UC781-RS(RT-Y181C | - | 2.67
CC(C)(C)NC(=O)[C@@H]1CN(Cc2cccnc2)CCN1C[C@@H](O)C[C@@H](Cc1ccccc1)C(=O)N[C@H]1c2ccccc2C[C@H]1O | - | PR-V32I M46I L63P I84A | RT activity | CGP 61755-resistant (PR V32I M46I L63P I84A) | 10 d | 27
Nc1ccn([C@H]2CC[C@@H](CO)O2)c(=O)n1 | MT-4 | RT-D67G | RT activity | HxB2D(RT-D67G) | - | 1.23
C[C@@H](NC(=S)Nc1ccc(Cl)cn1)c1cccc2ccccc12 | PBMC | RT-K103N Y181C | p24 | A17V(RT-K103N Y181C) | - | 73.4
c1cc(CN2CCCNCCNCCCNCC2)ccc1CN1CCCNCCNCCCNCC1 | MT-4 | L-CA resistant | cytopathic effect / MTT | NL4-3 | - | 2
N#Cc1cc2[nH]c3ccccc3c2n(-c2ccc([N+](=O)[O-])cc2)c1=O | HeLa | RT-G190S | luciferase | NNRTI-resistant | - | 1.7
Cc1cn([C@@H]2O[C@H](CO[Si](C)(C)C(C)(C)C)C3(OS(=O)(=O)C=C3N)[C@H]2O[Si](C)(C)C(C)(C)C)c(=O)n(C)c1=O | CEM | RT-E138A S162C E169D T200A L214F | syncytia | HXB2 (RT E138A S162C E169D T200A L214F) Clinical isolate | - | 13
Nc1nc(=O)n([C@H]2CO[C@@H](CO)S2)cc1F | CBMC | RT-M184V | RT activity | HXB2D (RT-M184V) | - | 2.94
CCn1c(=O)c(C)cn([C@@H]2O[C@H](CO[Si](C)(C)C(C)(C)C)C3(OS(=O)(=O)C=C3N)[C@H]2O[Si](C)(C)C(C)(C)C)c1=O | MT-4 | RT-E138A | cytopathic effect / MTT | Recombinant mutant | - | 15
Cc1occc1C(=S)Nc1ccc(Cl)c(/C=N/OC(C)(C)C)c1 | - | RT-Y181C | - | UC781-RS(RT-Y181C | - | 4.5
Nc1ccn([C@H]2CC[C@@H](CO)O2)c(=O)n1 | MT-2 | RT-K65R S68G | p24 / ELISA | HXB2-MT 65+68 (RT K65R S68G) | - | 6.28
Fc1cccc(F)c1C1SCc2nc3ccccc3n21 | - | RT-Y181C | - | UC781-RS(RT-Y181C | - | >20.3
Nc1nc(NC2CC2)c2ncn([C@H]3C=C[C@@H](CO)C3)c2n1 | MT-2 | RT-D67N K70R T215Y | - | HXB2D (RT D67N K70R T215Y) | - | 2.33
Nc1nc(=O)n([C@@H]2CO[C@H](CO)S2)cc1F | MT-4 | RT-M184V | RT activity | HXB2D (RT-M184V) | - | >15.2
O=c1[nH]cnc2c1ncn2[C@H]1CC[C@@H](CO)O1 | MT-2 | RT-K65R S68G | p24 / ELISA | HXB2-MT 65+68 (RT K65R S68G) | - | 4.8
Cc1ccc(NC(=S)N[C@H](C)c2cccc3ccccc23)nc1 | PBMC | RT-K103N Y181C | p24 | A17V(RT-K103N Y181C) | - | 49.4
O=c1[nH]cnc2c1ncn2[C@H]1CC[C@@H](CO)O1 | HeLa | RT-A62T V118I M184V | luciferase | Recombinant | - | 1.9
Cc1cn([C@H]2C[C@H](N=[N+]=[N-])[C@@H](CO)O2)c(=O)[nH]c1=O | MT-4 | RT-D67G | RT activity | HxB2D(RT-D67G) | - | 1.36
CC(=O)Oc1ccc(/C=C/C(=O)O[C@H](C(=O)O)[C@H](OC(=O)/C=C/c2ccc(OC(C)=O)c(OC(C)=O)c2)C(=O)O)cc1OC(C)=O | MT-4 | Dextran sulfate-resistant | - | NL4-3 | - | >11.9
COc1ccc2c(c1)N(C(=O)OC(C)C)[C@@H](CSC)C(=S)N2 | CEM | RT-E138A S162C E169D T200A L214F | syncytia | HXB2 (RT E138A S162C E169D T200A L214F) Clinical isolate | - | 10